Compound potency records, mixed from different reports. Data source: NIAID ChemDB in PubChem.

Common to all: tests in culture; species: Mycobacterium tuberculosis

MIC bound: limit read from a one-dose screen. a–b is a range or a potency band. Percent inhibition refers to the dose given; in toxicity tests it is the harm to the cells. An empty or dashed field is not shown. MIC50, MIC90 and the like: level of inhibition, or share of isolates inhibited. Conditions beyond the fields shown may differ between rows. ECn: concentration that inhibits the pathogen or its effect by n%.

structure | strain | conditions | changes | tested at | cell line | method | read-out | result
c1ccc2c(c1)oc1cc3c(cc12)nnc1cccn13 | H37Rv | - | - | 6.25 µg/mL | - | resazurin | inhibition | 28%
O=c1ccc2ccc(OCCN3CCC(Cc4ccccc4)CC3)cc2o1 | H37Rv | - | - | 1 µM | - | fluorescence | inhibition | 1.81%
COc1cccc2ccc(N3CCC(c4nc(-c5cccc(C(F)(F)F)c5)no4)CC3)nc12 | H37Rv | - | - | - | - | resazurin | MIC | 15.6–31.5 µM
CCN1C(=O)C2(CCC(=O)CC2)c2ccccc21 | H37Rv | - | - | - | - | - | MIC | 0.05 µg/mL
CO[C@H]1/C=C/O[C@@]2(C)Oc3c(C)c(O)c4c(O)c(c(/C=N/N=C/N5CCCC5)c(O)c4c3C2=O)NC(=O)/C(C)=C\C=C\[C@H](C)[C@H](O)[C@@H](C)[C@@H](O)[C@@H](C)[C@H](OC(C)=O)[C@@H]1C | - | - | - | - | - | - | MIC | 0.0025 µg/mL
Cc1cccc(Oc2nc(N)nc3nc[nH]c23)c1 | H37Rv | - | - | 6.25 µg/mL | - | BACTEC | inhibition | 0%
CCOC(=O)C1N=NC(=S)NC1=S | H37Rv | - | - | 12.5 µg/mL | - | BACTEC | inhibition | 0%
COc1cccc2ccc(N3CCC(c4nc(-c5ccc(N6CCNCC6)nc5)no4)CC3)nc12 | H37Rv | - | - | - | - | resazurin | MIC | 15.6–31.5 µM
CCCCCCCCCCSc1nc(N)nc2c1ncn2CC(=O)N[C@@H](CO)C(=O)OCC | H37Rv | - | - | 6.25 µg/mL | - | BACTEC | inhibition | 0%
C=C1CC[C@H](Br)[C@@]2(C)CC[C@@H](Br)[C@@]3(C)CC[C@H](OC(=O)c4ccc(O)c(c4)C[C@H]12)C(C)(C)O3 | - | - | - | - | - | - | MIC | 48 µM
CO[C@H]1/C=C/O[C@@]2(C)Oc3c(C)c(O)c4c(O)c(c(/C=N/N5CCN(C)CC5)c(O)c4c3C2=O)NC(=O)/C(C)=C\C=C\[C@H](C)[C@H](O)[C@@H](C)[C@@H](O)[C@@H](C)[C@H](OC(C)=O)[C@@H]1C | 90 drug-resistant isolates | - | - | - | - | - | EC50 | >100 µg/mL
OC(c1ccc(OCc2ccccc2)cc1)C1CC1 | H37Ra | - | - | - | - | - | MIC | >25 µg/mL
CC(=O)Nc1ccc(/C=N/NC(N)=S)cc1 | H37Rv | - | - | - | - | resazurin | MIC | 2.5 µg/mL
Cc1cc(=O)n2c(nc3ccccc32)o1 | H37Rv | - | - | 6.25 µg/mL | - | resazurin | inhibition | 3%
N/C(=N/N=C/c1ccccc1Cl)c1ccccn1 | H37Rv | - | - | - | - | - | MIC | 8 µg/mL
C[C@H](NCCNCCC(c1ccccc1)c1ccccc1)C1CCCCC1 | H37Rv | - | - | - | - | - | MIC | 15.6 µM
CCN1C(=O)C2(CCC(=N)C(C#N)C2)c2ccccc21 | H37Rv | - | - | - | - | - | MIC | 0.1 µg/mL
CCN(CC)CCNc1ccc(CO)c2sc3ccccc3c(=O)c12 | H37Rv | - | - | - | VERO | BACTEC | MIC | 3.13 µg/mL
COc1cc(/C=N/N=C(\N)c2ccccn2)cc(OC)c1OC | H37Rv | - | - | - | - | - | MIC | >256 µg/mL
CO[C@H]1/C=C/O[C@@]2(C)Oc3c(C)c(O)c4c(O)c(c(/C=N/N5CCN(C6CCCC6)CC5)c(O)c4c3C2=O)NC(=O)/C(C)=C\C=C\[C@H](C)[C@H](O)[C@@H](C)[C@@H](O)[C@@H](C)[C@H](OC(C)=O)[C@@H]1C | L188 | - | - | - | - | - | MIC | 0.2 µg/mL
Cc1c(Cl)c(=O)oc2cc(OCc3ccccc3)ccc12 | H37Rv | - | - | 50 µM | - | fluorescence | inhibition | 12.09%
N/C(=N/N=C/c1ccc(Cl)cc1)c1ccccn1 | H37Rv | - | - | - | - | - | MIC | 64 µg/mL
CCN=c1cc2n(-c3ccc(Cl)cc3)c3ccccc3nc-2cc1Nc1ccc(Cl)cc1 | H37Rv | - | - | - | - | - | MIC | 0.06 µg/mL
N/C(=N/N=C/c1cccc(F)c1)c1ccccn1 | H37Rv | - | - | - | - | - | MIC | 128 µg/mL
CC1=C(C(=O)N(C)c2ccc(Cl)c(C(=O)OC(C)C)c2)SCCO1 | H37Rv | - | - | - | - | BACTEC | MIC bound | >12.5 µg/mL
CCCCCCCCCCSc1nc(SCCCCCCCCCC)c2ncn(COCCO)c2n1 | H37Rv | - | - | 6.25 µg/mL | - | BACTEC | inhibition | 0%
COc1cccc2ccc(N3CCC(c4nc(-c5ccc(C(F)(F)F)nc5)no4)CC3)nc12 | H37Rv | - | - | - | - | resazurin | MIC | <7.8 µM
C1CCCN(NC2=NCCO2)CC1 | H37Rv | - | - | - | - | BACTEC | MIC bound | >12.5 µg/mL
COc1cccc2ccc(N3CCC(c4nc(-c5ccc(O)cc5)no4)CC3)nc12 | H37Rv | - | - | - | - | resazurin | MIC | 7.8–15.6 µM
CC(=O)OC1CCC2(C)C(C)C(C)CCC2(O)C1O | H37Rv | - | - | - | - | resazurin | MIC bound | >6.25 µg/mL
COc1cccc2ccc(N3CCC(c4nc(-c5ccc(NCCO)nc5)no4)CC3)nc12 | H37Rv | - | - | - | - | resazurin | MIC | 15.6–31.5 µM
CO[C@H]1/C=C/O[C@@]2(C)Oc3c(C)c(O)c4c(O)c(c(/C=N/N5CCN(C6CCCC6)CC5)c(O)c4c3C2=O)NC(=O)/C(C)=C\C=C\[C@H](C)[C@H](O)[C@@H](C)[C@@H](O)[C@@H](C)[C@H](OC(C)=O)[C@@H]1C | 13267 | - | - | - | - | - | MIC | <0.01 µg/mL
Cc1c(C#N)c(=O)oc2cc(OCc3ccccc3)ccc12 | H37Rv | - | - | 50 µM | - | fluorescence | inhibition | 33.08%
Cc1cccc(NC(=O)c2cnc(C(C)(C)C)cn2)c1Br | H37Rv | - | - | - | - | - | MIC | 32 µg/mL
COc1cccc2ccc(N3CCC(c4nc(-c5ccc(C(F)(F)F)cc5)no4)CC3)nc12 | H37Rv | - | - | - | - | resazurin | MIC | 50–100 µM
Clc1nc(OCC2CCCCC2)c2[nH]cnc2n1 | H37Rv | - | - | 6.25 µg/mL | - | BACTEC | inhibition | 0%
CC1=CC[C@H](Br)[C@@]2(C)CC[C@@H](Br)C(C)(O)CC[C@@H](C(C)(C)Br)OC(=O)c3ccc(O)c(c3)C[C@H]12 | - | - | - | - | - | - | MIC | >100 µM
O[C@]12C=C(Cc3cccc4cnccc34)[C@@H]3CCN(CCCC/C=C\CC1)C[C@@]31C[C@@H]3CCCCCCN3C12 | H37Rv | - | - | - | - | - | MIC | 6.4 µg/mL
CC(C)=C1C(=O)NC(=O)C1C(N)=O | H37Rv | - | - | - | - | BACTEC | MIC bound | >12.5 µg/mL
NC[C@H]1O[C@H](O[C@H]2[C@H](O)[C@@H](O[C@H]3O[C@H](CO)[C@@H](O)[C@H](N)[C@H]3O)[C@H](N)C[C@@H]2N)[C@H](O)[C@@H](O)[C@@H]1O | A2B (amikacin-resistant) | - | - | - | - | - | MIC | 128 µg/mL
Oc1cccc2cccnc12 | 2 strains | - | - | - | - | - | MIC | 6 µM
CCn1cc(C(=O)O)c(=O)c2cc(F)c(N3CCN(C)CC3)cc21 | 58 isolates | - | - | - | - | - | MIC50 | 4 µg/mL
CCOCn1ccc(NS(=O)(=O)c2ccc(N)cc2)nc1=O | Clinical isolate | - | Rifampicin-resistant | - | - | resazurin / fluorescence | MIC | 1.3 µM
O=C(Nc1ccc(C(F)(F)F)cc1)c1cncc(Cl)n1 | H37Rv | - | - | - | - | - | MIC | 8 µg/mL
O=c1ccc2ccc(OCc3ccc(Br)cc3)cc2o1 | H37Rv | - | - | 1 µM | - | fluorescence | inhibition | 3.72%
CC1CN(CCO)C(C)CN1CCO | H37Rv | - | - | 12.8 µg/mL | - | BACTEC | inhibition | 4%
C[C@H]1COc2c(N3CCN(C)CC3)c(F)cc3c(=O)c(C(=O)O)cn1c23 | 23 strains (rifampicin-resistant) | - | - | - | - | - | MIC50 | 3.13 µg/mL
CC(C)(C)c1cnc(C(=O)Nc2ccc(C(F)(F)F)cc2)cn1 | H37Rv | - | - | - | - | - | MIC | 8 µg/mL
C=C(C)[C@@H]1CCC(C)(O)[C@H](Br)CCC2C(C)=CCC(C)=C2Cc2cc(ccc2O)C(=O)O1 | - | - | - | - | - | - | MIC | 49 µM
NNC(=O)c1ccccc1 | Mtb 365 | - | - | - | - | - | MIC | 2 µg/mL
CN1CN(c2ccccc2)C2(CCN(CCCC3Cc4ccccc4O3)CC2)C1=O | H37Rv | - | - | - | - | BACTEC | MIC bound | >12.5 µg/mL
CO[C@H]1/C=C/O[C@@]2(C)Oc3c(C)c(O)c4c(O)c(c(/C=N/N5CCN(C)CC5)c(O)c4c3C2=O)NC(=O)/C(C)=C\C=C\[C@H](C)[C@H](O)[C@@H](C)[C@@H](O)[C@@H](C)[C@H](OC(C)=O)[C@@H]1C | Praha 1 | - | - | - | - | - | MIC | >9.7 µM
Cc1cc(NC(=O)c2ccc(N)cc2)ccc1N=Nc1ccc(N=Nc2cc(S(=O)(=O)O)ccc2S(=O)(=O)O)c(C)c1 | H37Rv | - | - | - | - | BACTEC | MIC bound | >12.5 µg/mL
CC1CC(C)CC(C)C(O)/C(C#N)=C\C=C/CC(C2CCCC2C(=O)O)OC(=O)CC(O)C(C)C1 | - | - | - | - | - | resazurin / visual reading | MIC | 4.17 µg/mL
NNC(=O)c1ccncc1 | H37Rv | - | - | - | - | resazurin | MIC | 0.03–0.06 µg/mL
COc1cc(O[C@@H]2O[C@H](CO)[C@@H](O)[C@H](O)[C@H]2O)c2c(c1)O[C@H](c1ccc(O)cc1)CC2=O | H37Rv | - | - | - | - | BACTEC | MIC bound | >12.5 µg/mL
CC(C)OC(=O)CC1COP(=O)(CO[C@H](C)Cn2cnc3c(N(C(=O)c4ccccc4)C(=O)c4ccccc4)ncnc32)OC1 | Genotype D | - | - | 1 µM | HepaRG | PCR | inhibition | ≤30%
COC(=O)/C(=C/Cc1ccc(Cl)cc1)CN=[N+]=[N-] | H37Rv | - | - | - | - | resazurin | MIC | >128 µM
NC(N)=Nc1ccc(-c2ccc(-c3ccc(N=C(N)N)cc3)s2)cc1 | H37Rv | - | - | - | - | - | MIC | <1 µg/mL
O=C(NN1CSC(=S)N(Cc2ccccc2)C1)c1ccncc1 | - | - | - | - | - | - | MIC | 25 µg/mL
COc1cc(OC)cc(-c2noc(C3CCN(c4ccc5cccc(OC)c5n4)CC3)n2)c1 | H37Rv | - | - | - | - | resazurin | MIC | 7.8–15.6 µM
Cc1cccc(Oc2nc(Cl)nc3nc[nH]c23)c1 | H37Rv | - | - | 6.25 µg/mL | - | BACTEC | inhibition | 0%
CCn1cc(C(=O)O)c(=O)c2cc(F)c(N3CCN(Cn4c(O)c(N=NC(=O)c5ccncc5)c5cc(Cl)ccc54)CC3)cc21 | H37Rv | - | - | - | - | resazurin | MIC | >6.25 µg/mL
Cc1cnc(CC2=C[C@@]3(O)CC/C=C\CCCCN4CC[C@@H]2[C@]2(C[C@@H]5CCCCCCN5C23)C4)cn1 | H37Rv | - | - | - | - | - | MIC | 14.4 µg/mL
COC(=O)/C(=C/Cc1ccccc1Cl)CN=[N+]=[N-] | H37Rv | - | - | - | - | resazurin | MIC | >128 µM
COC(=O)C1=CN(c2ccc(C(=O)OC)cc2)C(=O)C1=[N+]=[N-] | H37Rv | - | - | 12.8 µg/mL | - | BACTEC | inhibition | 44%
CN1C(=O)C2(CCC(=N)C(C#N)C2)c2ccccc21 | H37Rv | - | - | - | - | - | MIC | 0.1 µg/mL
O=C(Nc1ccc(C(F)(F)F)cc1)c1cnccn1 | H37Rv | - | - | - | - | - | MIC | 2 µg/mL
CN(C)c1ccc(/C=c2\sc3nnc(-c4cccnc4)n3c2=O)cc1 | H37Rv | - | - | - | - | BACTEC | MIC bound | >12.5 µg/mL
CCCCCCCNc1cncc(C(=O)NCc2ccccc2)n1 | H37Rv | - | - | - | - | resazurin | MIC | 3.13 µg/mL
O=C1C=C(N2CCN(c3ccccc3)CC2)c2ccccc2C1=O | H37Rv | - | - | 6.25 µg/mL | - | resazurin | inhibition | 9%
NNC(=O)c1ccncc1 | 86 drug-resistant isolates | - | - | - | - | - | EC50 | <10 µg/mL
N=C1/C(=C/c2ccccc2O)C(=O)NN1C(=O)c1ccncc1 | H37Rv | - | - | - | - | resazurin | MIC bound | <6.25 µg/mL
COC(=O)/C(=C/Cc1ccccc1)CN=[N+]=[N-] | H37Rv | - | - | - | - | resazurin | MIC | >128 µM
O[C@]12C=C(Cc3cc4cc(F)ccc4[nH]3)[C@@H]3CCN(CCCC/C=C\CC1)C[C@@]31C[C@@H]3CCCCCCN3C12 | H37Rv | - | - | - | - | - | MIC | 1.7 µg/mL
CSC(=S)N/N=C/c1cccc(C)n1 | KM-R | - | - | - | - | - | MIC | >12.8 µg/mL
CO[C@H]1/C=C/O[C@@]2(C)Oc3c(C)c(O)c4c(O)c(c(/C=N/N5CCN(C)CC5)c(O)c4c3C2=O)NC(=O)/C(C)=C\C=C\[C@H](C)[C@H](O)[C@@H](C)[C@@H](O)[C@@H](C)[C@H](OC(C)=O)[C@@H]1C | My 88 | 21 d | - | - | - | - | MIC | 2 µM
Cc1cc(=O)c2c(=O)[nH][nH]c2[nH]1 | H37Rv | - | - | - | - | BACTEC | MIC bound | >12.5 µg/mL
COc1ccc(OC)c(/C=N/N=C(\N)c2ccccn2)c1 | H37Rv | - | - | - | - | - | MIC | 256 µg/mL
CSC(=S)n1nc(-c2cccs2)c(N=Nc2ccccc2)c1C(F)(F)F | H37Rv | - | - | - | - | BACTEC | MIC | 128 µg/mL
COc1cccc(/C=N/N=C(\N)c2ccccn2)c1OC | H37Rv | - | - | - | - | - | MIC | 256 µg/mL

6 of the rows above, restated:

structure	strain	conditions	changes	tested at	cell line	method	read-out	result
OC(c1ccc(OCc2ccccc2)cc1)C1CC1	H37Ra	-	-	-	-	-	MIC	>25 µg/mL
CCCCCCCCCCSc1nc(SCCCCCCCCCC)c2ncn(COCCO)c2n1	H37Rv	-	-	6.25 µg/mL	-	BACTEC	inhibition	0%
N/C(=N/N=C/c1ccccc1Cl)c1ccccn1	H37Rv	-	-	-	-	-	MIC	8 µg/mL
CC(=O)Nc1ccc(/C=N/NC(N)=S)cc1	H37Rv	-	-	-	-	resazurin	MIC	2.5 µg/mL
O=c1ccc2ccc(OCCN3CCC(Cc4ccccc4)CC3)cc2o1	H37Rv	-	-	1 µM	-	fluorescence	inhibition	1.81%
COC(=O)C1=CN(c2ccc(C(=O)OC)cc2)C(=O)C1=[N+]=[N-]	H37Rv	-	-	12.8 µg/mL	-	BACTEC	inhibition	44%